Results of unrelated studies side by side (data: NIAID ChemDB).

All rows: cytotoxicity tests; cell line: MT-4; measure: CC50

Blank or dashed fields: not listed here. Conditions beyond the fields shown may differ between rows. CCn is the concentration with n% toxicity to the cells.

smiles	read by	value
C=C1CC[C@]2(OC)OC(=O)C(C)=C2[C@@H]2[C@@H]1[C@@]13O[C@@]1(C[C@@H](C)[C@@H]3O)[C@H]1O[C@@]21C	MTT	31.46 µg/mL
N#Cc1ccc(Nc2nc(Oc3c(Br)cc(Br)cc3Br)ncc2N)cc1	MTT	37 µM
CCOC(=O)Sc1nsc(-c2ccccc2)c1C#N	MTT	108 µg/mL
CC(C)(C)OC(=O)NCCC(=O)N(CC(=O)CN(Cc1ccccc1)C(=O)CCNC(=O)OC(C)(C)C)Cc1ccccc1	-	10 µM
Cc1cccc(NC(=S)NCCc2c(F)cccc2F)n1	-	>123 µg/mL
O=C(COc1ccc2ccccc2c1)NCc1nnc(Nc2ccccc2)s1	MTT	2.92 µg/mL
CC(=O)Nc1cnc(Oc2c(Br)cc(Br)cc2Br)nc1Nc1ccc(C#N)cc1	MTT	≥118 µM
CC(C)(C)OC(=O)NCCCCCC(=O)N(Cc1ccccc1)CC(O)CN(Cc1ccccc1)C(=O)CCCCCNC(=O)OC(C)(C)C	-	10 µM
N#C/C(=C\c1cccc(F)c1F)n1nnc2ccccc21	-	3.3 µM
Cc1cc(Br)cnc1NC(=S)NCCc1c(F)cccc1F	-	>25 µg/mL
C[C@@H]1CO[C@@]23CCCC[C@@H]2n2cc(C(=O)NCc4ccc(F)cc4F)c(=O)c(O)c2C(=O)N13	luminescence	7.27 µM
Fc1cccc(F)c1CCNC(=S)Nc1ncc(Br)cc1Cl	-	15.7 µg/mL
COc1cc(OC)c(C2SCC(=O)N2Cc2ccco2)cc1OC	-	263 µM
Fc1cccc(F)c1CCNC(=S)Nc1ccc(Cl)cn1	-	>25 µg/mL
Cc1ccc(Sc2c(C(=O)NCCO)[nH]c3ccc(Cl)cc23)c(C)c1	MTT	>100 µM
O=C1CSC(c2cc(Cl)cc(Cl)c2)N1Cc1ccco1	-	42.16 µM
CSc1nsc(-c2ccccc2)c1C#N	MTT	>125 µg/mL
COc1cc(OC)c(C2SCC(=O)N2Cc2ccco2)c(OC)c1	-	6.88 µM
O=C1C=CC(=C(c2ccc(O)cc2)c2ccc(O)cc2)C=C1	-	2.6 µM
Cc1cc(C)cc(Sc2c(C(=O)NCCO)[nH]c3ccc(Cl)cc23)c1	MTT	42 µM
CC(C)(C)OC(=O)N(CCC(=O)N(Cc1ccccc1)CC(O)CN(Cc1ccccc1)C(=O)CCN(Cc1ccccc1)C(=O)OC(C)(C)C)Cc1ccccc1	-	10 µM
N#C/C(=C\c1cccs1)n1nc2ccccc2n1	-	>100 µM
O=C(CCCN1C(=O)c2ccccc2C1=O)NC(=S)NC(Cc1ccc(O)cc1)C(=O)O	MTT	37.82 µM
CCOC(=O)CCCCCn1c(Cc2ccccc2)c(C(C)C)c(=O)[nH]c1=O	-	>100 µM
Cc1ccc(-n2c(CNC(=O)COc3ccc4ccccc4c3)n[nH]c2=S)cc1	MTT	53.2 µg/mL
O=C(Cl)CCCN1C(=O)c2ccccc2C1=O	MTT	52.8 µM
Cc1cc(C)cc(S(=O)(=O)c2c(C(=O)N[C@@H]3CCN(Cc4ccccc4C#N)C3)[nH]c3ccc(Cl)cc23)c1	MTT	>186 µM
COC(=O)C(C)NC(=O)CCCN1C(=O)c2ccccc2C1=O	MTT	101 µM
Cc1cn([C@H]2C[C@H](N=[N+]=[N-])[C@@H](CO)O2)c(=O)[nH]c1=O	MTT	9.82 µg/mL
O=C1CSC(c2ccc(Cl)cc2)N1Cc1ccco1	-	43.54 µM
COc1cc(Br)cnc1NC(=S)NCCc1c(F)cccc1F	-	>20.9 µg/mL
Cc1ccnc2c1NC(=O)c1cccnc1N2C1CC1	MTT	19.65 µg/mL
O=C1CSC(c2c(Cl)cccc2Cl)N1Cc1ccco1	-	44.8 µM
COc1ccc(NC(=S)NNC(=O)CNC(=O)COc2ccc3ccccc3c2)cc1	MTT	13.2 µg/mL
Cc1ccc(S(=O)(=O)NC(C)c2nnc(SCc3ccc(F)cc3)o2)cc1	-	70.8 µg/mL
Cc1cc(C=O)cc(C)c1Oc1ncc([N+](=O)[O-])c(Nc2ccc(C#N)cc2)n1	MTT	37 µM
CSCCC(NS(=O)(=O)c1ccc(C)cc1)c1nnc(SCc2ccc(Br)cc2)o1	-	11.75 µg/mL
COc1cccc(S(=O)(=O)n2c(=O)[nH]c3ccc(Cl)cc32)c1	MTS	>369 µM
CC(NS(=O)(=O)c1ccc(Cl)cc1)c1nnc(SCc2ccc(F)cc2)o1	-	>58.75 µg/mL
CC(C)c1c(Cc2ccccc2)n(CCCC(N)=O)c(=O)[nH]c1=O	-	>100 µM
Cc1cc(C)cc(S(=O)(=O)c2c(C(=O)NC3CN(Cc4ccccc4F)C3)[nH]c3ccc(Cl)cc23)c1	MTT	>238 µM
N#C/C(=C\c1ccc(Cl)c(Cl)c1)n1nnc2ccccc21	-	5.8 µM
CC(C)c1c(Cc2ccccc2)n(CCCCCC(N)=O)c(=O)[nH]c1=O	-	>100 µM
Cc1cc(C)cc(S(=O)(=O)c2c(C(=O)N[C@H]3CCN(Cc4n[nH]c(=O)n4C)C3)[nH]c3ccc(Cl)cc23)c1	MTT	21.45 µM
O=C(CCCN1C(=O)c2ccccc2C1=O)NC(=S)NC(CO)C(=O)O	MTT	89.5 µM
Cc1ccc(S(=O)(=O)Sc2nnc(CNC(=O)COc3ccc4ccccc4c3)n2-c2ccccc2)cc1	MTT	12.7 µg/mL
O=C1CSC(c2ccccc2Cl)N1Cc1ccco1	-	112 µM
O=S(=O)(O)O.O=S(=O)(O)O.O=S(=O)(O)O.O=S(=O)(O)O.O=S(=O)(O)O.O=S(=O)(O)O.O=S(=O)(O)O.O=S(=O)(O)O.O=S(=O)(O)O.O=S(=O)(O)O.O=S(=O)(O)O.O=S(=O)(O)O.OC[C@H]1O[C@@H]2O[C@H]3[C@H](O)[C@@H](O)[C@@H](O[C@H]4[C@H](O)[C@@H](O)[C@@H](O[C@H]5[C@H](O)[C@@H](O)[C@@H](O[C@H]6[C@H](O)[C@@H](O)[C@@H](O[C@H]7[C@H](O)[C@@H](O)[C@@H](O[C@H]1[C@H](O)[C@H]2O)O[C@@H]7CO)O[C@@H]6CO)O[C@@H]5CO)O[C@@H]4CO)O[C@@H]3CO	-	>2500 µg/mL
O=C(O)/C(=C\c1ccc(Br)cc1)n1nnc2ccccc21	-	0.4 µM
Cc1ccnc2c1NC(=O)c1cccnc1N2C1CC1	MTT	>4 µM
Cc1ccc(Sc2c(C(=O)NNCCO)[nH]c3ccc(Cl)cc23)cc1	MTT	>100 µM
CC(C)c1c(Cc2ccccc2)n(CCCO)c(=O)[nH]c1=O	-	>100 µM
COC(=O)C1CCCN1C(=O)CCCN1C(=O)c2ccccc2C1=O	MTT	101.9 µM
C[C@@H]1CO[C@@]23CCCC[C@@H]2n2cc(C(=O)NCc4ccc(F)c(Cl)c4F)c(=O)c(O)c2C(=O)N13	luminescence	4.6 µM
CSc1nsc(-c2ccc(OCc3ccccc3)cc2)c1C#N	MTT	>125 µg/mL
COC(=O)C(Cc1c[nH]c2ccccc12)NC(=O)CCCN1C(=O)c2ccccc2C1=O	MTT	29.61 µM
CCc1cc(CCc2nc3c(Cl)ccc(Cl)c3o2)c(=O)[nH]c1C	-	>0.06 µM
CCNC(=NCCCN(C)C)N[C@@H]1[C@H](O)[C@@H](O[C@H]2/C=C/C=C/C=C/C=C/C=C/C=C/C=C/[C@H](C)[C@@H](O)[C@@H](C)[C@H](C)OC(=O)CC(O)CC(O)CC(O)CCC(O)C(O)C[C@]3(O)CC(O)C(C(=O)O)C(C2)O3)O[C@H](C)[C@@H]1O	-	>100 µg/mL
N#C/C(=C/c1ccc2ccccc2c1)n1nnc2ccccc21	-	0.4 µM
O=C(NCc1ccc(F)c(Cl)c1F)c1cn2c(c(O)c1=O)C(=O)N1CCC[C@]13COCC[C@H]23	luminescence	9.06 µM
Cc1cc(C)cc(S(=O)(=O)c2c(C(=O)NS(=O)(=O)C3CC3)[nH]c3ccc(Cl)cc23)c1	MTT	146 µM
NC(=O)/C(=C\c1ccccc1)n1nc2ccccc2n1	-	39 µM
Nc1nc(NC2CC2)c2ncn([C@H]3C=C[C@@H](CO)C3)c2n1	MTT	0.26 µg/mL
CCOS(=O)c1nsc(-c2ccc(OCc3ccccc3)cc2)c1C#N	MTT	>125 µg/mL
CC(C)(C)OC(=O)N(CCCCCC(=O)N(Cc1ccccc1)CC(O)CN(Cc1ccccc1)C(=O)CCCCCN(Cc1ccccc1)C(=O)OC(C)(C)C)Cc1ccccc1	-	50 µM
CC(=O)Nc1cnc(Oc2c(C)cc(C=O)cc2C)nc1Nc1ccc(C#N)cc1	MTT	236 µM
CCOCn1c(Cc2ccccc2)c(C(C)C)c(=O)[nH]c1=O	-	53 µM
CSCCC(c1nnc(SCc2ccc(F)cc2)o1)N(Cc1ccc(F)cc1)S(=O)(=O)c1ccc(C)cc1	-	>125 µg/mL
N#C/C(=C\c1ccc(C#N)cc1)n1nnc2ccccc21	-	3 µM
CC(C)(C)OC(=O)N(CCCCC(=O)N(CC(=O)CN(Cc1ccccc1)C(=O)CCCCN(CCCN(Cc1ccccc1)C(=O)OC(C)(C)C)C(=O)OC(C)(C)C)Cc1ccccc1)CCCN(Cc1ccccc1)C(=O)OC(C)(C)C	-	50 µM
Fc1cccc(F)c1CCNC(=S)Nc1ncc(Cl)cc1Cl	-	>24.2 µg/mL
Cc1cc(C)cc(S(=O)(=O)c2c(C(=O)N[C@@H]3CCN(Cc4cccnc4)C3)[nH]c3ccc(Cl)cc23)c1	MTT	36.52 µM
Cc1c(C(C#N)c2ccccc2)nc(SC(C)C)[nH]c1=O	MTT	10.81 µM
Fc1cccc(F)c1CCNC(=S)Nc1cccc(Cl)n1	-	>5 µg/mL

The last 11 rows once more:

smiles	read by	value
CCOS(=O)c1nsc(-c2ccc(OCc3ccccc3)cc2)c1C#N	MTT	>125 µg/mL
CC(C)(C)OC(=O)N(CCCCCC(=O)N(Cc1ccccc1)CC(O)CN(Cc1ccccc1)C(=O)CCCCCN(Cc1ccccc1)C(=O)OC(C)(C)C)Cc1ccccc1	-	50 µM
CC(=O)Nc1cnc(Oc2c(C)cc(C=O)cc2C)nc1Nc1ccc(C#N)cc1	MTT	236 µM
CCOCn1c(Cc2ccccc2)c(C(C)C)c(=O)[nH]c1=O	-	53 µM
CSCCC(c1nnc(SCc2ccc(F)cc2)o1)N(Cc1ccc(F)cc1)S(=O)(=O)c1ccc(C)cc1	-	>125 µg/mL
N#C/C(=C\c1ccc(C#N)cc1)n1nnc2ccccc21	-	3 µM
CC(C)(C)OC(=O)N(CCCCC(=O)N(CC(=O)CN(Cc1ccccc1)C(=O)CCCCN(CCCN(Cc1ccccc1)C(=O)OC(C)(C)C)C(=O)OC(C)(C)C)Cc1ccccc1)CCCN(Cc1ccccc1)C(=O)OC(C)(C)C	-	50 µM
Fc1cccc(F)c1CCNC(=S)Nc1ncc(Cl)cc1Cl	-	>24.2 µg/mL
Cc1cc(C)cc(S(=O)(=O)c2c(C(=O)N[C@@H]3CCN(Cc4cccnc4)C3)[nH]c3ccc(Cl)cc23)c1	MTT	36.52 µM
Cc1c(C(C#N)c2ccccc2)nc(SC(C)C)[nH]c1=O	MTT	10.81 µM
Fc1cccc(F)c1CCNC(=S)Nc1cccc(Cl)n1	-	>5 µg/mL